B1: mouse monoclonal antibody H5M9 (antibody, V domains shown)
VH: EVHLQQSGPELVKPGASVKMSCKTSGYTFTEYTIHWMKQSHGKSLEWIGGIFPNNGDTTYNQKFKIRATLTVGKSSSTAYMDLRSLTSEDSAVYYCVRNYGSSYGYFDVWGAGTTVTVSS
VL: DIVLTQSPGSLTVSLGQRATISCRASESVDNFGKSFMHWYQQKPGQSPKLLIYRASNREFGIPARFNGSGSGTDFALTINPVEADDVATYFCQQSNEDPRTFGGGTKLEIK
notes: also called mH5M9; source: purified from mouse ascites by caprylic acid-ammonium sulfate precipitation
B2: chimeric H5M9 (antibody, V domains shown)
VH: B1 VH
VL: B1 VL

Target: H5 HA (A/Vietnam/1194/04) (Influenza A virus A/Vietnam/1194/2004 …, UniProt C5MRF4, strain)
Experiment: SPR

Row | Binder | Kd [nM]
1 | B1 | 0.0305
2 | B2 | 0.0431
